# From publication PMC6629953
# For at least one entry, the source does not settle the construct or the ends of the probe.
# Molecular target: CRP (cAMP receptor protein) (UniProt A6TEZ6)
# Assay: EMSA
# Settings: CRP 1-4 uM, poly(dI-dC) 30 ug/mL, BSA, no cAMP listed in buffer; recombinant protein; protein details: His-tag (pET30b); probe letters rebuilt from the primers and the genome
sequence,measurement,value
ATGAGCGAAGCTAGCGAAAGAGACCAGGGAGAGCATACCGGCAGCGGCGAGTAATTTTACGTTTTTCATGGTGTTTGTCCTTTTAACTTTTATGGTGGAAAGCATGTTTGCTTTCGATGGACTTATAATAAGCCTGCTAACTATAACGCGCGTGGCAAAAAGTGCGATTTAGATCACATTTTTATGGCGGTTTGATGGCGTAAACATGATCGTTTATCTATTTTTTAGTTTAAAAACAATGGATTAATGATTTGTTTCTGAAAGGGGGGATCACATGGGCTGCCCTTGTTCAGGGAGAGGAATGCGCCTCATTCATGCTTTCACCATTCGTTGTGTGAATGGTTTGGTGCTGTTTTCACCACCGCAAAGGCAGATTCAGACTTATCGCGATGGC (double strand) [mrkA upstream region (394 bp)],binding result,binds
